Measurements reported in PubChem BioAssay AID624099 (ICCB-Longwood, 2012)

Purpose: 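Host factors E2 relies on to silence an HPV18 LCR reporter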 (primary screen)
System: human C33A cervical carcinoma cells (HPV-negative) stably expressing BPV1 E2 and an HPV18 LCR luciferase reporter
Reagents: siRNA pool against human genes, 40 nM
Time to read-out: 72 h
Detection: 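Per-well luciferase luminescence, z-scored on each plate against the plate mean and SD with control wells left out, then averaged across three replicate plates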
Reading the numbers: mean z-score and z-score: higher = stronger reporter signal, weaker E2 silencing
Hit rule: 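Hit if mean z-score reaches 2 and two or more of three replicate z-scores also reach 2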
Here is an unselected part of about 21,000 deposited reagents. 497 of them (2.4%) were called active. 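Higher z means weaker E2 silencing; only reporter increases were scored, and knock-downs that hurt cell survival may mask genuine repressor factors.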 Unmarked entries are inactive. The numbers tell different reagents against one gene apart. No sequences are given here.

ATP6V1G2 (ATPase H+ transporting V1 subunit G2): mean z-score = 0.5; z-score, replicate A = 0.32; z-score, replicate B = 0.72; z-score, replicate C = 0.47
CACNG8 (calcium voltage-gated channel auxiliary subunit gamma 8): mean z-score = 0.1; z-score, replicate A = 0.36; z-score, replicate B = 0; z-score, replicate C = -0.07
PSMD14 (proteasome 26S subunit, non-ATPase 14): mean z-score = -2.8; z-score, replicate A = -2.68; z-score, replicate B = -2.55; z-score, replicate C = -3.17
ILK (integrin linked kinase) #1: mean z-score = -2.62; z-score, replicate A = -2.67; z-score, replicate B = -2.8; z-score, replicate C = -2.4
ILK (integrin linked kinase) #2: mean z-score = 0.79; z-score, replicate A = 1.28; z-score, replicate B = 0.69; z-score, replicate C = 0.4
NEU2 (neuraminidase 2): mean z-score = -0.57; z-score, replicate A = -0.61; z-score, replicate B = -0.59; z-score, replicate C = -0.52
CXorf66 (chromosome X open reading frame 66): mean z-score = 0.3; z-score, replicate A = 0.22; z-score, replicate B = 0.52; z-score, replicate C = 0.16
LOC400708 (retired record): mean z-score = -0.17; z-score, replicate A = 0.12; z-score, replicate B = -0.29; z-score, replicate C = -0.35
GARS1-DT (GARS1 divergent transcript) #1: mean z-score = -0.12; z-score, replicate A = -0.16; z-score, replicate B = 0.05; z-score, replicate C = -0.24
GARS1-DT (GARS1 divergent transcript) #2: mean z-score = -0.14; z-score, replicate A = -0.36; z-score, replicate B = 0.13; z-score, replicate C = -0.18
MPLKIP (M-phase specific PLK1 interacting protein): mean z-score = 0.71; z-score, replicate A = 1.01; z-score, replicate B = 0.92; z-score, replicate C = 0.2
B9D2 (B9 domain containing 2): mean z-score = 0.13; z-score, replicate A = -0.06; z-score, replicate B = -0.01; z-score, replicate C = 0.46
HEG1 (heart development protein with EGF like domains 1): mean z-score = -2.26; z-score, replicate A = -2.27; z-score, replicate B = -2.14; z-score, replicate C = -2.36
SCGB2A2 (secretoglobin family 2A member 2): mean z-score = 0.24; z-score, replicate A = 0.4; z-score, replicate B = 0.43; z-score, replicate C = -0.11
ABHD1 (abhydrolase domain containing 1): mean z-score = -1.17; z-score, replicate A = -1.24; z-score, replicate B = -1.17; z-score, replicate C = -1.1
SLC9A8: mean z-score = -1; z-score, replicate A = -0.9; z-score, replicate B = -0.97; z-score, replicate C = -1.12
GCC2 (GRIP and coiled-coil domain containing 2): mean z-score = -0.7; z-score, replicate A = -0.77; z-score, replicate B = -0.75; z-score, replicate C = -0.58
LOC402066 (retired record): mean z-score = -0.81; z-score, replicate A = -0.87; z-score, replicate B = -0.35; z-score, replicate C = -1.21
FAM86C1P (family with sequence similarity 86 member C1, pseudogene): mean z-score = 0.54; z-score, replicate A = 0.75; z-score, replicate B = 0.69; z-score, replicate C = 0.17
SIM1 (SIM bHLH transcription factor 1): mean z-score = -1.14; z-score, replicate A = -1.24; z-score, replicate B = -1.06; z-score, replicate C = -1.12
THBD (thrombomodulin): mean z-score = 0.98; z-score, replicate A = 1.16; z-score, replicate B = 1.03; z-score, replicate C = 0.76
RXFP2 (relaxin family peptide receptor 2): mean z-score = -0.92; z-score, replicate A = -1.05; z-score, replicate B = -0.9; z-score, replicate C = -0.83
APC (APC regulator of Wnt signaling pathway): mean z-score = 0.27; z-score, replicate A = 0.3; z-score, replicate B = 0.32; z-score, replicate C = 0.2
OSBPL11 (oxysterol binding protein like 11): mean z-score = -1; z-score, replicate A = -1.22; z-score, replicate B = -0.58; z-score, replicate C = -1.2
LINC02389 (long independently transcribed non-coding RNA 2389): mean z-score = 0.21; z-score, replicate A = 0.53; z-score, replicate B = 0.02; z-score, replicate C = 0.08
NECTIN3 (nectin cell adhesion molecule 3): mean z-score = -0.04; z-score, replicate A = -0.08; z-score, replicate B = 0; z-score, replicate C = -0.03
SPAG7 (sperm associated antigen 7): mean z-score = 0.41; z-score, replicate A = 0.31; z-score, replicate B = 0.31; z-score, replicate C = 0.61

Laid out differently: entries from further up.
ABHD1 (abhydrolase domain containing 1)
- mean z-score: -1.17
- z-score, replicate A: -1.24
- z-score, replicate B: -1.17
- z-score, replicate C: -1.1

SLC9A8
- mean z-score: -1
- z-score, replicate A: -0.9
- z-score, replicate B: -0.97
- z-score, replicate C: -1.12

GCC2 (GRIP and coiled-coil domain containing 2)
- mean z-score: -0.7
- z-score, replicate A: -0.77
- z-score, replicate B: -0.75
- z-score, replicate C: -0.58

LOC402066 (retired record)
- mean z-score: -0.81
- z-score, replicate A: -0.87
- z-score, replicate B: -0.35
- z-score, replicate C: -1.21
